The source of these data is PMC8113585.

In this data set the target is SARS-CoV-2 nucleocapsid (N) protein, full-length (SARS-CoV-2) (UniProt P0DTC9). Kind of data set: EMSA. The conditions noted are these: N protein alone, 5 nM RNA; recombinant protein; residues 1-419; label: 5'-biotin.

The exact form of at least one protein or probe is not confirmed.

In the case of AAGUUCGUUU [TRS RNA], the Kd is 1.28 µM.
